“Also recorded” adds a separate entry of the source.
Key:
[1] = tested on: SNAPtide (DABCYL/5-IAF) (List Biological Laboratories Inc.)
[2] = tested on: SNAPtide (o-Abz/Dnp) (List Biological Laboratories Inc.)
[3] = tested on: SNAPtide (FITC/DABCYL) (List Biological Laboratories Inc.)

BoNT/A
lowest toxin concentration detected by substrate cleavage (fluorescence) [1]: allowed detection of at least either 1 nM BoNT/A | lowest toxin concentration detected by substrate cleavage (fluorescence) [2]: allowed detection of at least either 1 nM BoNT/A; also recorded: SNAPtideFITC and SNAPtideo-Abz even allowed detection of 0.5 nM BoNT/A | lowest toxin concentration detected by substrate cleavage (fluorescence) [3]: allowed detection of at least either 1 nM BoNT/A; also recorded: SNAPtideFITC and SNAPtideo-Abz even allowed detection of 0.5 nM BoNT/A

Source: patent US20140287433
